Compound potency records, mixed from different reports. Data source: NIAID ChemDB in PubChem.

Common to all: whole-cell or culture tests; agent: HIV-1; measure: EC50

ECn: concentration that inhibits the pathogen or its effect by n%.

smiles,changes,cell line,strain,result
Nc1ccc(CN2C(=O)N(Cc3ccc4[nH]ncc4c3)[C@H](Cc3ccccc3)[C@H](O)[C@@H](O)[C@H]2Cc2ccccc2)cc1,-,MT-2,RF WT,<0.011 µM
Cc1nnc(SCC(=O)Nc2ccccc2Br)n1-c1ccc(N(C)C)c2ccccc12,Y188L,HeLa,-,0.24 µM
Cc1cn([C@H]2C[C@H](N=[N+]=[N-])[C@@H](CO)O2)c(=O)[nH]c1=O,DS-resistant,-,NL4-3,0.004 µM
CC(C)=CCN1Cc2cc(Cl)cc3[nH]c(=S)n(c23)C[C@@H]1C,RT-L74V L100I,MT-4,-,<3 µM
CC(=O)c1cc(C#N)cc(C(=O)c2cc(Cl)ccc2OCC(=O)Nc2ccc(S(N)(=O)=O)cc2C)c1,WTRVA,HeLa,-,0.0007 µM
Nc1nc(=O)n([C@@H]2CS[C@H](CO)O2)cc1F,E138K,TZM-bl,LAI,2.5 µM
Cc1cc(S(N)(=O)=O)ccc1NC(=O)COc1ccc(Cl)cc1C(=O)c1cc(C#N)cc(C(=O)N2CCOCC2)c1,V106A,HeLa,-,>2 µM
Cc1ccnc2c1NC(=O)c1cccnc1N2C1CC1,-,Primary T lymphocytes,NL4-3,1.017 µM
Cc1ccnc2c1NC(=O)c1cccnc1N2C1CC1,RT-A98G Y181C,PBMC,BCF03,41 µM
COc1ccc(S(=O)(=O)N(CC(C)C)C[C@@H](O)[C@H](Cc2ccccc2)NC(=O)O[C@H]2CO[C@H]3OCC(F)(F)[C@H]32)cc1,M46I I50V N38K M36I GRL05010-resistant,MT-4,NL4-3,0.029 µM
COC(=O)c1cc(C#N)cc(C(=O)c2cc(Cl)ccc2OCC(=O)Nc2ccc(S(N)(=O)=O)cc2C)c1,V106A,HeLa,-,0.043 µM
O=c1[nH]cnc2c1ncn2[C@H]1CC[C@@H](CO)O1,+Vpx,Jurkat cells,NL4-3,2.572 µM
CC(C)(C)NC(=O)[C@@H]1C[C@@H]2CCCC[C@@H]2CN1C[C@@H](O)[C@H](Cc1ccccc1)NC(=O)[C@H](CC(N)=O)NC(=O)c1ccc2ccccc2n1,PR-L10V K20C M36I L63T I64V A71V,PBMC,BCF01,0.0204 µM
Nc1nc(NC2CC2)c2ncn([C@H]3C=C[C@@H](CO)C3)c2n1,+Vpx,Jurkat cells,NL4-3,0.059 µM
Cc1cc(S(N)(=O)=O)ccc1NC(=O)COc1ccc(Cl)cc1C(=O)c1cc(C#N)cc(CO)c1,K103N,HeLa,-,0.0045 µM
O=C(Nc1cc(S(=O)(=O)O)cc2cc(S(=O)(=O)O)c(N=Nc3ccc(N=Nc4c(S(=O)(=O)O)cc5cc(S(=O)(=O)O)cc(NC(=O)c6cccc(Cl)c6Cl)c5c4O)cc3)c(O)c12)c1ccc(Cl)cc1Cl,-,MT-2,A018A,0.63–3.2 µg/mL
COC(=O)Cc1cccc(CN2C(=O)N(Cc3ccc4[nH]ncc4c3)[C@H](Cc3ccccc3)[C@H](O)[C@@H](O)[C@H]2Cc2ccccc2)c1,-,MT-2,RF,<0.032 µM
CC(C)=CCN1Cc2cc(Cl)cc3[nH]c(=S)n(c23)C[C@@H]1C,RT-A98G,PBMC,RUD (RT-A98G),1.1 µM
O=C1O[C@H]2[C@@H]3OC(=O)c4cc(O)c(O)c(O)c4-c4c(cc(O)c(O)c4O)C(=O)OC[C@H]2O[C@@H](OC(=O)c2cc(O)c(O)c(O)c2)[C@@H]3OC(=O)c2cc(O)c(O)c3c2[C@@H]2C1=CC(=O)[C@](O)(O3)C2(O)O,RT-M184V,MAGI,NRTI resistant (RT M184V) ARP145,0.95 µg/mL
C[C@H](Cn1cnc2c(N)ncnc21)OCP(=O)(O)O,-,MDM,NL4-3,6.114 µM
CC1=C(C(=O)Nc2ccc(Cl)c(C(=O)OC(C)C)c2)SCCO1,-,CEM + CEM-SS,IIIB,2.4 µM
CC(C)(C)OC(=O)N[C@@H](Cc1ccccc1)[C@H](O)CNC[C@@H](O)[C@H](Cc1ccc(OCC(=O)N2CCOCC2)cc1)NC(=O)OC(C)(C)C,-,MT-2,RF,0.24 µM
Cc1ccnc2c1NC(=O)c1cccnc1N2C1CC1,-,MT-4,NL4-3,0.06 µM
C=C(COCP(=O)(O)O)Cn1cnc2c(=O)[nH]c(N)nc21,-,PBMC + H-PBMC,IIIB,1.5 µM
Cc1cc(S(N)(=O)=O)ccc1NC(=O)COc1ccc(Cl)cc1C(=O)c1cc(C#N)cc(OC(F)(F)F)c1,Y181C,HeLa,-,0.0003 µM
O=C(Cn1ccnn1)c1cccc(CN2C(=O)N(Cc3ccc4[nH]ncc4c3)[C@H](Cc3ccccc3)[C@H](O)[C@@H](O)[C@H]2Cc2ccccc2)c1,-,MT-2,RF,<0.03 µM
Cc1cc(S(N)(=O)=O)ccc1NC(=O)COc1ccc(Cl)cc1C(=O)c1cc(Cl)cc(C#N)c1,K103N,HeLa,-,0.0007 µM
CO[P@](=O)(c1cc(C)cc(/C=C/C#N)c1)c1c(C(N)=O)[nH]c2ccc(Cl)cc12,-,U-937,BH10,0.0013 µM
COc1ccc(-n2c(C)nnc2SCC(=O)Nc2ccc(S(N)(=O)=O)cc2Cl)c2ccccc12,Y188L,HeLa,-,0.11 µM
Cc1cc(S(N)(=O)=O)ccc1NC(=O)COc1ccc(Cl)cc1C(=O)c1cc(C#N)cc(C(N)=O)c1,WTRVA,HeLa,-,1.1 µM
Cc1ccc2c(-n3c(C)nnc3SCC(=O)Nc3ccccc3Br)ccc(C)c2c1,Y188L,HeLa,-,0.151 µM
Cc1cc(S(N)(=O)=O)ccc1NC(=O)COc1ccc(Cl)cc1C(=O)c1cc(C#N)cc([N+](=O)[O-])c1,K103N,HeLa,-,0.0014 µM
Nc1nc(N)c2ncn([C@H]3CO[C@@H](CO)O3)c2n1,RT-K65R,MT-2,-,17.2 µM
CC(C)(C)NC(=O)[C@@H]1C[C@@H]2CCCC[C@@H]2CN1C[C@@H](O)[C@H](Cc1ccccc1)NC(=O)[C@H](CC(N)=O)NC(=O)c1ccc2ccccc2n1,L10I K43T M46L I54V L63P A71V V82A L90M Q92K,PBMC,Clinical isolate,0.11 µM
Cc1cc(S(N)(=O)=O)ccc1NC(=O)COc1ccc(Cl)cc1C(=O)c1cc(C#N)cc(N(C)C)c1,Y181C,HeLa,-,0.0028 µM
c1cc(CN2CCCNCCNCCCNCC2)ccc1CN1CCCNCCNCCCNCC1,DS-resistant,-,NL4-3,0.02 µM
COC(=O)N[C@H](C(=O)N[C@@H](Cc1ccccc1)[C@@H](O)CN(Cc1ccc(-c2ccccn2)cc1)NC(=O)[C@@H](NC(=O)OC)C(C)(C)C)C(C)(C)C,L10F V32I M46I I45M A71V I84V APV resistant,MT-4,NL4-3,0.66 µM
Nc1ccn([C@H]2CC[C@@H](CO)O2)c(=O)n1,RT-D67N K70R T215F K219Q,HT4 + HT4 LacZ-1,RTMC (RT D67N K70R T215F K219Q),0.65 µM
Cc1ccc2cccnc2c1-n1c(C)nnc1SCC(=O)Nc1ccc(S(N)(=O)=O)cc1Cl,Y188L,HeLa,-,0.389 µM
O=C1N(Cc2cccc(CCO)c2)[C@H](Cc2ccccc2)[C@H](O)[C@@H](O)[C@@H](Cc2ccccc2)N1Cc1ccc2[nH]ncc2c1,-,MT-2,RF,<0.017 µM
Nc1ncnc2c1ncn2CCOCP(=O)(O)O,-,CEM,IIIB,6 µM
Nc1ccn([C@@H]2CC[C@H](CO)O2)c(=O)n1,-,HT4 + HT4 LacZ-1,HXB2,5 µM
Cc1cc(/C=C/C#N)cc(C)c1Nc1ccnc(Nc2ccc(C#N)cc2)n1,E138Q,TZM-bl,LAI,0.0013 µM
CC(=O)Oc1ccc(/C=C/C(=O)O[C@@H](C(=O)O)[C@@H](OC(=O)/C=C/c2ccc(OC(C)=O)c(OC(C)=O)c2)C(=O)O)cc1OC(C)=O,AR117-resistant,MT-4,NL4-3,>74 µM
CN(C)c1cccc(CN2C(=O)N(Cc3ccc4[nH]ncc4c3)[C@H](Cc3ccccc3)[C@H](O)[C@@H](O)[C@H]2Cc2ccccc2)c1,-,MT-2,RF,<0.039 µM

Conditions beyond the fields shown may differ between rows. Two numbers with a dash give a range or band. Blank or dashed fields: not listed here.